What was measured:
hNav1.1 = target: T1, hNav1.1 (Homo sapiens, UniProt P35498); assay: Two-electrode voltage clamp, Nav1.1 in Xenopus laevis oocytes; format: cell-based; conditions: two-electrode voltage clamp in Xenopus laevis oocytes, Hill fit, n ≥ 3; highest tested concentration 50 μM
T1 construct: expressed in transfected cells; host or cells: Xenopus laevis oocytes (cRNA injection)

rNaV1.3 = target: T2, rNaV1.3 (Rattus norvegicus, UniProt P08104); assay: Two-electrode voltage clamp, Nav1.3 in Xenopus laevis oocytes; format: cell-based; conditions: for fold increase in EC50 on Nav1.3 relative to alpha-1: reduced activity; for fold reduction of EC50 on Nav1.3 relative to alpha-1: enhanced activity compared to alpha-1
T2 construct: expressed in transfected cells; host or cells: Xenopus laevis oocytes (cRNA injection)

BgNav1 = assay: Two-electrode voltage clamp, BgNav1 expressed in Xenopus laevis oocytes; format: cell-based, Blattella germanica
rNaV1.4 = target: T3, rNaV1.4 (Rattus norvegicus, UniProt P15390); assay: Two-electrode voltage clamp, Nav1.4 in Xenopus laevis oocytes; format: cell-based; conditions: for fold reduction of EC50 on Nav1.4 relative to alpha-1: relative to alpha-1 184 ± 65.4 nM
T3 construct: expressed in transfected cells; host or cells: Xenopus laevis oocytes (cRNA injection)

hNav1.7 = target: T4, hNav1.7 (Homo sapiens, UniProt Q15858); assay: Two-electrode voltage clamp, Nav1.7 in Xenopus laevis oocytes; format: cell-based; conditions: two-electrode voltage clamp in Xenopus laevis oocytes, Hill fit, n ≥ 3
T4 construct: expressed in transfected cells; host or cells: Xenopus laevis oocytes (cRNA injection)

SMILES	EC50 Nav1.1 (hNav1.1)	fold increase in EC50 on Nav1.3 relative to alpha-1 (rNaV1.3)	fold increase in EC50 on BgNav1 relative to alpha-1 (times lower activity) (BgNav1)	fold increase in EC50 on Nav1.4 relative to alpha-1 (rNaV1.4; negative impact on affinity)	EC50 Nav1.7 (hNav1.7)	fold reduction of EC50 on Nav1.4 relative to alpha-1 (rNaV1.4)	fold reduction of EC50 on Nav1.3 relative to alpha-1 (rNaV1.3)
CC[C@H](C)[C@@H]1NC(=O)[C@@H](NC(=O)CN)CSSC[C@@H]2NC(=O)[C@@H]3CSSC[C@@H](C(=O)N[C@@H](CC(N)=O)C(=O)N4C[C@H](O)C[C@H]4C(=O)N4C[C@H](O)C[C@H]4C(=O)N[C@@H](CC(N)=O)C(=O)N[C@@H](CCC(N)=O)C(=O)O)NC(=O)[C@H](CCCCN)NC(=O)[C@H](C)NC(=O)[C@H](CC(N)=O)NC(=O)[C@H](Cc4c[nH]c5ccccc45)NC(=O)CNC(=O)[C@H](CSSC[C@H](NC(=O)[C@H](Cc4ccccc4)NC(=O)[C@H](CO)NC(=O)CNC(=O)[C@H]([C@@H](C)O)NC(=O)[C@H](C)NC1=O)C(=O)N[C@@H]([C@@H](C)O)C(=O)N[C@@H](CC(C)C)C(=O)N[C@@H](CO)C(=O)N[C@@H](CCCCN)C(=O)NCC(=O)N3)NC(=O)[C@H](CC(N)=O)NC(=O)[C@H](CCCCN)NC(=O)[C@H]([C@@H](C)O)NC2=O [Peptide F24A]	no activity at all	5- to 20 fold	44- to 195 fold	–	–	–	–
CC[C@H](C)[C@@H]1NC(=O)[C@@H](NC(=O)CN)CSSC[C@@H]2NC(=O)[C@@H]3CSSC[C@@H](C(=O)N[C@@H](CC(N)=O)C(=O)N4C[C@H](O)C[C@H]4C(=O)N4C[C@H](O)C[C@H]4C(=O)N[C@@H](CC(N)=O)C(=O)N[C@@H](CCC(N)=O)C(=O)O)NC(=O)[C@H](CCCCN)NC(=O)[C@H](Cc4ccccc4)NC(=O)[C@H](CC(N)=O)NC(=O)[C@H](Cc4c[nH]c5ccccc45)NC(=O)CNC(=O)[C@H](CSSC[C@H](NC(=O)[C@H](Cc4ccccc4)NC(=O)[C@H](CO)NC(=O)CNC(=O)[C@H]([C@@H](C)O)NC(=O)[C@H](C)NC1=O)C(=O)N[C@@H]([C@@H](C)O)C(=O)N[C@@H](CC(C)C)C(=O)N[C@@H](CO)C(=O)N[C@@H](CCCCN)C(=O)NCC(=O)N3)NC(=O)[C@H](CC(N)=O)NC(=O)[C@H](C)NC(=O)[C@H]([C@@H](C)O)NC2=O [Peptide K18A]	–	5- to 20 fold	–	3.8- to 30 fold	–	–	–
CC[C@H](C)[C@@H]1NC(=O)[C@@H](NC(=O)CN)CSSC[C@@H]2NC(=O)[C@@H]3CSSC[C@@H](C(=O)N[C@@H](C)C(=O)N4C[C@H](O)C[C@H]4C(=O)N4C[C@H](O)C[C@H]4C(=O)N[C@@H](CC(N)=O)C(=O)N[C@@H](CCC(N)=O)C(=O)O)NC(=O)[C@H](CCCCN)NC(=O)[C@H](Cc4ccccc4)NC(=O)[C@H](CC(N)=O)NC(=O)[C@H](Cc4c[nH]c5ccccc45)NC(=O)CNC(=O)[C@H](CSSC[C@H](NC(=O)[C@H](Cc4ccccc4)NC(=O)[C@H](CO)NC(=O)CNC(=O)[C@H]([C@@H](C)O)NC(=O)[C@H](C)NC1=O)C(=O)N[C@@H]([C@@H](C)O)C(=O)N[C@@H](CC(C)C)C(=O)N[C@@H](CO)C(=O)N[C@@H](CCCCN)C(=O)NCC(=O)N3)NC(=O)[C@H](CC(N)=O)NC(=O)[C@H](CCCCN)NC(=O)[C@H]([C@@H](C)O)NC2=O [Peptide N27A]	activity in the same range as alpha-1	–	–	–	lower activity compared to alpha-1	1.6- to 3.2 fold	–
CC[C@H](C)[C@@H]1NC(=O)[C@@H](NC(=O)CN)CSSC[C@@H]2NC(=O)[C@@H]3CSSC[C@@H](C(=O)N[C@@H](CC(N)=O)C(=O)N4C[C@H](O)C[C@H]4C(=O)N4C[C@H](O)C[C@H]4C(=O)N[C@@H](C)C(=O)N[C@@H](CCC(N)=O)C(=O)O)NC(=O)[C@H](CCCCN)NC(=O)[C@H](Cc4ccccc4)NC(=O)[C@H](CC(N)=O)NC(=O)[C@H](Cc4c[nH]c5ccccc45)NC(=O)CNC(=O)[C@H](CSSC[C@H](NC(=O)[C@H](Cc4ccccc4)NC(=O)[C@H](CO)NC(=O)CNC(=O)[C@H]([C@@H](C)O)NC(=O)[C@H](C)NC1=O)C(=O)N[C@@H]([C@@H](C)O)C(=O)N[C@@H](CC(C)C)C(=O)N[C@@H](CO)C(=O)N[C@@H](CCCCN)C(=O)NCC(=O)N3)NC(=O)[C@H](CC(N)=O)NC(=O)[C@H](CCCCN)NC(=O)[C@H]([C@@H](C)O)NC2=O [Peptide N30A]	activity in the same range as alpha-1	5- to 20 fold	–	–	lower activity compared to alpha-1	1.6- to 3.2 fold	–
CC[C@H](C)[C@@H]1NC(=O)[C@@H](NC(=O)CN)CSSC[C@@H]2NC(=O)[C@@H]3CSSC[C@@H](C(=O)N[C@@H](CC(N)=O)C(=O)N4C[C@H](O)C[C@H]4C(=O)N4C[C@H](O)C[C@H]4C(=O)N[C@@H](CC(N)=O)C(=O)N[C@@H](CCC(N)=O)C(=O)O)NC(=O)[C@H](CCCCN)NC(=O)[C@H](Cc4ccccc4)NC(=O)[C@H](CC(N)=O)NC(=O)[C@H](Cc4c[nH]c5ccccc45)NC(=O)CNC(=O)[C@H](CSSC[C@H](NC(=O)[C@H](Cc4ccccc4)NC(=O)[C@H](C)NC(=O)CNC(=O)[C@H]([C@@H](C)O)NC(=O)[C@H](C)NC1=O)C(=O)N[C@@H]([C@@H](C)O)C(=O)N[C@@H](CC(C)C)C(=O)N[C@@H](CO)C(=O)N[C@@H](CCCCN)C(=O)NCC(=O)N3)NC(=O)[C@H](CC(N)=O)NC(=O)[C@H](CCCCN)NC(=O)[C@H]([C@@H](C)O)NC2=O [Peptide S7A]	activity in the same range as alpha-1	–	–	–	lower activity compared to alpha-1	1.6- to 3.2 fold	1.4 fold
CC[C@H](C)[C@@H]1NC(=O)[C@@H](NC(=O)CN)CSSC[C@@H]2NC(=O)[C@@H]3CSSC[C@@H](C(=O)N[C@@H](CC(N)=O)C(=O)N4C[C@H](O)C[C@H]4C(=O)N4C[C@H](O)C[C@H]4C(=O)N[C@@H](CC(N)=O)C(=O)N[C@@H](CCC(N)=O)C(=O)O)NC(=O)[C@H](CCCCN)NC(=O)[C@H](Cc4ccccc4)NC(=O)[C@H](CC(N)=O)NC(=O)[C@H](Cc4c[nH]c5ccccc45)NC(=O)CNC(=O)[C@H](CSSC[C@H](NC(=O)[C@H](Cc4ccccc4)NC(=O)[C@H](CO)NC(=O)CNC(=O)[C@H](C)NC(=O)[C@H](C)NC1=O)C(=O)N[C@@H]([C@@H](C)O)C(=O)N[C@@H](CC(C)C)C(=O)N[C@@H](CO)C(=O)N[C@@H](CCCCN)C(=O)NCC(=O)N3)NC(=O)[C@H](CC(N)=O)NC(=O)[C@H](CCCCN)NC(=O)[C@H]([C@@H](C)O)NC2=O [Peptide T5A]	activity in the same range as alpha-1	–	–	–	lower activity compared to alpha-1	1.6- to 3.2 fold	1.1 fold
CC[C@H](C)[C@@H]1NC(=O)[C@@H](NC(=O)CN)CSSC[C@@H]2NC(=O)[C@@H]3CSSC[C@@H](C(=O)N[C@@H](CC(N)=O)C(=O)N4C[C@H](O)C[C@H]4C(=O)N4C[C@H](O)C[C@H]4C(=O)N[C@@H](CC(N)=O)C(=O)N[C@@H](CCC(N)=O)C(=O)O)NC(=O)[C@H](CCCCN)NC(=O)[C@H](Cc4ccccc4)NC(=O)[C@H](CC(N)=O)NC(=O)[C@H](Cc4c[nH]c5ccccc45)NC(=O)CNC(=O)[C@H](CSSC[C@H](NC(=O)[C@H](Cc4ccccc4)NC(=O)[C@H](CO)NC(=O)CNC(=O)[C@H]([C@@H](C)O)NC(=O)[C@H](C)NC1=O)C(=O)N[C@@H](C)C(=O)N[C@@H](CC(C)C)C(=O)N[C@@H](CO)C(=O)N[C@@H](CCCCN)C(=O)NCC(=O)N3)NC(=O)[C@H](CC(N)=O)NC(=O)[C@H](CCCCN)NC(=O)[C@H]([C@@H](C)O)NC2=O [Peptide T10A]	activity in the same range as alpha-1	–	–	–	lower activity compared to alpha-1	1.6- to 3.2 fold	–

— publication PMC12836348, “Alanine Mutagenesis Identifies Specific Amino Acids of Nemertide Alpha‑1 Activity and Its Binding to Target Receptors” (Journal of Natural Products, 2025)
